Measured values from several laboratories, pooled; numbers as filed in NIAID ChemDB.

All rows: tests in culture

Inhibition is in % at the dose shown (toxicity tests: loss of growth or viability).

compound	strain	method	read-out	tested at	species	cell line	value
COc1ccc(/C=C\C=C\c2cc(OC)cc(=O)o2)cc1	-	-	inhibition	25 µM	Cryptosporidium parvum	-	11%
CN[C@H]1CC[C@@H](c2ccc(Cl)c(Cl)c2)c2ccccc21	92BC1-52	broth dilution	MIC90	-	Cryptococcus neoformans	-	3 µg/mL
O=C(c1ccccc1)c1oc2cc(O)cc(O)c2c1O	-	-	inhibition	50 µM	Cryptosporidium parvum	-	10%
Cn1nc(Cc2ccc(Cl)cc2)c2ccccc2c1=O	Clinical isolate (IM 972724)	broth dilution	MFC	-	Cryptococcus neoformans	-	15.6 µg/mL
CC[C@H]1OC(=O)[C@H](C)[C@@H](O[C@H]2C[C@@](C)(OC)[C@@H](O)[C@H](C)O2)[C@H](C)[C@@H](O[C@@H]2O[C@H](C)C[C@H](N(C)C)[C@H]2O)[C@](C)(O)C[C@@H](C)CN(C)[C@H](C)[C@@H](O)[C@]1(C)O	-	-	inhibition	2 µg/mL	Cryptosporidium parvum	A549	13.5%
C[C@@H](c1ncncc1F)[C@](O)(Cn1cncn1)c1ccc(F)cc1F	VG IIa	broth dilution	MIC90	-	Cryptococcus gattii	-	0.125 µg/mL
COc1cc(/C=C/C=C\c2ccc3c(c2)OCO3)oc(=O)c1	-	-	inhibition	10 µM	Cryptosporidium parvum	-	0%
CCC(C)CC(C)CCCCCCCCC(=O)N[C@H]1C[C@@H](O)[C@H](NCCN)NC(=O)[C@@H]2[C@@H](O)CCN2C(=O)[C@H]([C@H](O)CCN)NC(=O)[C@H]([C@H](O)[C@@H](O)c2ccc(O)cc2)NC(=O)[C@@H]2C[C@@H](O)CN2C(=O)[C@H]([C@@H](C)O)NC1=O	ATCC90112	broth dilution	MIC	-	Cryptococcus neoformans	-	16 µg/mL
NC[C@@H]1O[C@H](O[C@H]2[C@@H](O)[C@H](O[C@@H]3[C@@H](O)[C@H](N)C[C@H](N)[C@H]3O[C@H]3O[C@H](CO)[C@@H](O)[C@H](O)[C@H]3N)O[C@@H]2CO)[C@H](N)[C@@H](O)[C@@H]1O	IOWA	luminescence	inhibition	50 µg/mL	Cryptosporidium parvum	MDCK	5.8%
Oc1ccccc1N=Cc1cccc(O)c1O	ATCC 24067	-	MIC99	-	Cryptococcus neoformans	-	4 µg/mL
O=C1/C(=C/c2ccc(O)cc2)Oc2cc(O)ccc21	-	-	inhibition	50 µM	Cryptosporidium parvum	-	93%
CCC(C)n1ncn(-c2ccc(N3CCN(c4ccc(OC[C@H]5CO[C@](Cn6cncn6)(c6ccc(Cl)cc6Cl)O5)cc4)CC3)cc2)c1=O	Clinical isolate (IM 000319)	broth dilution	MIC	-	Cryptococcus neoformans	-	<0.015 µg/mL
COc1cc(/C=C2\Oc3cc(O)cc(O)c3C2=O)cc(OC)c1O	-	-	inhibition	25 µM	Cryptosporidium parvum	-	36%
NCCCC[C@H](NC(=O)[C@H](CCCN=C(N)N)NC(=O)[C@H](CCCN=C(N)N)NC(=O)[C@H](CCCCN)NC(=O)[C@H](CCCCN)NC(=O)[C@@H](N)CCCCN)C(=O)N[C@@H](CCCN=C(N)N)C(=O)O	ATCC 32264	-	inhibition	25 µM	Cryptococcus neoformans	-	10%
CC(=O)OC[C@H]1O[C@@H](O[C@@H]2[C@@H](N=[N+]=[N-])[C@H](O)[C@H](O)[C@H]3OC(C)(C)O[C@H]32)[C@H](OC(C)=O)[C@@H](OC(C)=O)[C@H]1OC(C)=O	ATCC 32264	broth dilution / turbidity	inhibition	62.5 µg/mL	Cryptococcus neoformans	-	15.48%
NC[C@@H]1O[C@H](O[C@H]2[C@@H](O)[C@H](O[C@@H]3[C@@H](O)[C@H](N)C[C@H](N)[C@H]3O[C@H]3O[C@H](CO)[C@@H](O)[C@H](O)[C@H]3N)O[C@@H]2CO)[C@H](N)[C@@H](O)[C@@H]1O	-	cell count	inhibition	500 µg/mL	Cryptosporidium parvum	MDBK	71.9%
Oc1cccc(C=Nc2ccccc2O)c1	VM-MCMMPI	broth dilution	MIC	-	Cryptococcus neoformans	-	4 µg/mL
Cc1cc(O)c2c(c1)C(=O)c1c(cnn1C)C2=O	-	-	inhibition	25 µM	Cryptosporidium parvum	-	11%
Oc1ccc(O)c(C=Nc2ccccc2O)c1	135L/03	-	MIC99	-	Cryptococcus gattii	-	8 µg/mL
CCn1ncc2c1C(=O)c1c(O)ccc(O)c1C2=O	-	-	inhibition	50 µM	Cryptosporidium parvum	-	<10%
COc1ccc(/C=C2\Oc3cc(O)ccc3C2=O)cc1OC	-	-	inhibition	25 µM	Cryptosporidium parvum	-	93%
Cc1cc(O)c2c(c1Cl)C(=O)c1cn[nH]c1C2=O	-	-	inhibition	10 µM	Cryptosporidium parvum	-	<10%
O=C1/C(=C/c2ccc(O)cc2O)Oc2cc(O)ccc21	-	-	inhibition	25 µM	Cryptosporidium parvum	-	90%
Oc1ccccc1N=Cc1ccccc1	ATCC 62066	-	MIC99	-	Cryptococcus neoformans	-	2 µg/mL
O=C1/C(=C/c2ccccc2)Oc2cc(O)ccc21	-	-	inhibition	25 µM	Cryptosporidium parvum	-	17%
O=C1c2cccc(O)c2C(=O)c2cn[nH]c21	-	-	inhibition	100 µM	Cryptosporidium parvum	-	100%

2 of the rows above, restated:

C[C@@H](c1ncncc1F)[C@](O)(Cn1cncn1)c1ccc(F)cc1F ; strain: VG IIa ; method: broth dilution ; read-out: MIC90 ; species: Cryptococcus gattii ; value: 0.125 µg/mL
Cn1nc(Cc2ccc(Cl)cc2)c2ccccc2c1=O ; strain: Clinical isolate (IM 972724) ; method: broth dilution ; read-out: MFC ; species: Cryptococcus neoformans ; value: 15.6 µg/mL

An empty or dashed field is not shown. Conditions beyond the fields shown may differ between rows. MIC50, MIC90 and the like: level of inhibition, or share of isolates inhibited.